This note sets out measurements from patent US10501493B2, “Broad spectrum antibiotics” (priority 2011, dated 2019).

Sequences of proteins named here, by UniProt entry; tags and fusion partners are left off.
UniProt P0A070, whole entry: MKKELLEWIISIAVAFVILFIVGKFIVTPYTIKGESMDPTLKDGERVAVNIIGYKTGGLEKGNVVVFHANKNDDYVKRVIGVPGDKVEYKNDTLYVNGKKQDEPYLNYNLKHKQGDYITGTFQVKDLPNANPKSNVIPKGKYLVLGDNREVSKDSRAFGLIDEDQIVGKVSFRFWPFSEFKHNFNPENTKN
UniProt P00803, whole entry: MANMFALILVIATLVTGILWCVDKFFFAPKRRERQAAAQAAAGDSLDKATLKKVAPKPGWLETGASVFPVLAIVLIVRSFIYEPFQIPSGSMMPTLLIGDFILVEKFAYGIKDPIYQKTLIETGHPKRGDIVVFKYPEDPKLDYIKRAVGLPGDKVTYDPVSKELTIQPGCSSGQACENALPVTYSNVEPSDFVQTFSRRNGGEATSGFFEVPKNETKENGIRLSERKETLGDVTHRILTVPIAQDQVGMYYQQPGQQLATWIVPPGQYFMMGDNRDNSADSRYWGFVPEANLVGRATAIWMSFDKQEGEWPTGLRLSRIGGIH

Molecules are shown by their SMILES. pIC50: −log10 of the molar value.

The test system of one assay is S. epidermidis RP62A. Kind of assay: In vitro antimicrobial activity, MIC by broth micro-dilution. In kind it is cell-based. The procedure: (§1) In vitro antimicrobial activity of each compound was determined by measuring minimal inhibitor concentrations (MICs) using the broth micro-dilution technique as approved by the Clinical and Laboratory Standards Institute (CLSI). The microbiological panel examined contains a number of bacterial species including E. coli MG1655, P. aeruginosa, S. aureus, and S. epidermidis. In addition, the panel includes previously described pseudo-isogenic strains of these four species (P. A. Smith et al. Chem Biol 2010, 1223-1231), in which a specific proline residue in SPase (called LepB in Gram-negative organisms an SpsB in Gram-positive organisms) has been mutated to a different amino acid. The resulting strains have increased susceptibility to the arylomycin class of antibiotics. Analysis of the strains lacking this proline residue will increases the dynamic range of the assay, and comparison of the sensitivities of the isogenic pairs provides ongoing confirmation that the activity gained through derivatization is specific to the inhibition of SPase. Briefly, bacterial streaks were grown on Mueller Hinton Agar II (Difco™) with or without 5% lysed horse blood for a period of 24 hours at either 35° C. or 28° C. Bacterial colonies were suspended in cation adjusted Mueller Hinton broth and diluted to a final concentration of 1*10^7 colony forming units/ml. Two-fold serial dilutions of each compound were arrayed into 96-well plates (100 μl final volume per well) and 5 ul of the bacterial suspension will be added. […] MICs were periodically checked plating serial dilutions of MIC wells and quantitatively determining viable colonies.

Assay [1] relates to S. aureus NCTC-8325 SpsB(P295). Described as above. The class given is cell-based. The procedure: as §1
The subject of a further assay is S. pneumoniae D39. The assay is described as above. The class given is cell-based. The procedure: as §1
The test system of the next assay is S. aurues NCTC-8325. Described as above. In kind it is cell-based, S. aureus. How it is done:
as §1, with “C.” for “C. Bacterial colonies were suspended in cation adjusted Mueller Hinton broth and diluted to a final concentration of 1*10^7 colony forming units/ml. Two-fold serial dilutions of each compound were arrayed into 96-well plates (100 μl final volume per well) and 5 ul of the bacterial suspension will be added.”

A further assay deals with S. aureus SPase (Staphylococcus aureus, UniProt P0A070). Kind of assay: Enzymatic fluorogenic substrate cleavage assay for IC50. The class given is biochemical. Conditions: read-out: IC50 class S. aureus SPase; fluorogenic peptide cleavage. How it is done:
(§2) Full length His-tagged E. coli SPase proteins were expressed in E. coli BL21(DE3) containing the plasmid pET23-lepB, P. A. Smith et al. Chem Biol 2010, 1223-1231. Briefly, saturated overnight cultures grown in 20 ml of Luria-Bertani medium supplemented with ampicillin were subcultures into 1.5 L of Luria-Bertani, and shaken at 37° C. until an optical density at 600 nm of 0.4-0.5 was achieved. Protein expression was induced with Isopropyl β-D-1-thiogalactopyranoside (ITPG) at a final concentration of […], and purified using nickel affinity chromatography. Full length His-tagged S. aureus SPase protein was expressed similarly from E. coli BL21(DE3) containing the plasmid pCDF1-SaSpsB or pCDF1-SaSpsB(P29S) and purified similarly to the E. coli protein with the following exceptions. SPase protein was solubilized using 300 mM NaCl, 20 mM Tris pH 8.06, 5 mM Imidazole, 10% glycerol, 1% Triton X-100, prior to purification in Ni-NTA Superflow resin and resin bound protein was washed in a similar buffer containing 1% Elugent in place of Triton X-100 prior to protein eluted in wash buffer supplemented with 300 mM imidazole. Protein purify was judged to exceed 95% by visual inspection of SDS-PAGE followed by Comassie staining. All protein concentrations were determined by BCA assay.
(§3) In addition to the equilibrium binding assays, compound activity is also characterized by measuring inhibition of E. coli and S. aureus substrate cleavage reactions using fluorogenic peptides developed at RQx Pharmaceuticals. Briefly, two fluorogenic peptide substrates (decanoyl-LSSPA Y^NO2 A ? ADK^abzPD (SEQ ID NO: 1) and decanyol-LTPTAY^NO2 A ? ASKK^abzDD (SEQ ID NO: 2)) have been synthesized, where abz is the fluorescence donor 2-aminobenzamide, YNO2 is the fluorescence acceptor 3-nitrotyrosine, and the cleavage site is indicated with an arrow. These substrates are processed with a second order rate constant (Kcat/KM) of 10^5 M^−1s^−1 for E. coli and S. aureus SPase enzymes, and cleavage results in a greater than 10-fold increase in fluorescence signal (excitation at 314 nm, emission at 416 nm) as measured using a SpectraMax M2 fluorescence microplate reader. […] The increase in fluorescence, corresponding to substrate cleavage, is monitored continuously at room temperature for 30 minutes and initial reaction rates are calculated based in the linear increase in fluorescence from the initial 30 minutes of the reaction. Reaction rates are plotted as a function of compound concentration, and IC50 values are determined nonlinear regression analysis (SoftMax® Pro v5.4) of the sigmoidal dose-response curve.

The target of a further assay is E. coli SPase (Escherichia coli, UniProt P00803). The assay is described as above. Conditions: read-out: IC50 class E. coli SPase; fluorogenic peptide cleavage. In kind it is biochemical. The procedure:
as §2, §3

The subject of assay [2] is E. col ATCC 25922 LepB(P84L). Kind of assay: In vitro antimicrobial activity, MIC by broth micro-dilution. In kind it is cell-based, E. coli. How it is done:
as §1, with “C.” for “C. Bacterial colonies were suspended in cation adjusted Mueller Hinton broth and diluted to a final concentration of 1*10^7 colony forming units/ml. Two-fold serial dilutions of each compound were arrayed into 96-well plates (100 μl final volume per well) and 5 ul of the bacterial suspension will be added.”
On the technique in general: In broth dilution the organism is exposed to a series of concentrations in liquid medium.

The next assay deals with E. coli ATCC 25922. The description is as above. The class given is cell-based. How it is done:
as §1

A word on the pIC50: it is −log10 of the IC50, conventionally taken in molar units.

For `CCCCCCCCCCCCCCCC(=O)N(C)[C@H](CO)C(=O)N[C@H](C)C(=O)N[C@H](C)C(=O)N(C)[C@@H]1C(=O)N[C@@H](C)C(=O)N[C@H](C(=O)O)Cc2ccc(O)c(c2)-c2cc1ccc2O`, the “MIC class, S. epidermidis RP62A” value in the assay with S. epidermidis RP62A was “b (MIC 16-64 μg/ml)”. Besides, in assay [1], the “MIC class, S. aureus NCTC-8325 SpsB(P295)” value is “b (MIC 16-64 μg/ml)”. Also, the “MIC class, S. pneumoniae D39” value in the assay with S. pneumoniae D39 is reported as “b (MIC 16-64 μg/ml)”. Besides, in the assay on S. aurues NCTC-8325, the “MIC class, S. aurues NCTC-8325” value is on record as “a (MIC >64 μg/ml)”. For the same compound, the negative logarithm of the IC50 (pIC50) at S. aureus SPase and at E. coli SPase was 5.00 to 6.00 in each case. Also, in assay [2], the “MIC class, E. col ATCC 25922 LepB(P84L)” value is listed as “a (MIC >64 μg/ml)”.
For the compound `CCCCCCCCCCCCCCNC(=O)N[C@H](CO)C(=O)N[C@H](C)C(=O)NCC(=O)N(C)[C@@H]1C(=O)N[C@@H](C)C(=O)N[C@H](C(=O)O)Cc2ccc(O)c(c2)-c2cc1ccc2O`, the “MIC class, S. epidermidis RP62A” value against S. epidermidis RP62A is reported as “c (MIC ≤8 μg/ml)”. Moreover, the “MIC class, S. aureus NCTC-8325 SpsB(P295)” value in assay [1] is given as “a (MIC >64 μg/ml)”. In addition, the “MIC class, E. coli ATCC 25922” value in the assay with E. coli ATCC 25922 is reported as “a (MIC >64 μg/ml)”. The “MIC class, S. pneumoniae D39” value with S. pneumoniae D39 is listed as “a (MIC >64 μg/ml)”. Further, the “MIC class, S. aurues NCTC-8325” value in the assay with S. aurues NCTC-8325 is “a (MIC >64 μg/ml)”. Further, the pIC50 on S. aureus SPase and on E. coli SPase was over 6.00 each time. The “MIC class, E. col ATCC 25922 LepB(P84L)” value in assay [2] was “c (MIC ≤8 μg/ml)”.
